Results as given in patent US20230181714A1 (VANDERBILT UNIVERSITY, published 2023).

Tests used:
Assay in all cases: cell-based or functional assay
[1] = target: SINV/VEEV (IAB: Trinidad Donkey strain) (Venezuelan equine encephalitis virus …, UniProt P09592 335-757; P09592 813-1254)
[2] = target: SINV/VEEV (IAB: TC-83 strain) (Venezuelan equine encephalitis virus …, UniProt P05674 335-757; P05674 813-1254)
SINV/VEEV (IC: INH9831) = SINV/VEEV (IC: INH9831) (Venezuelan equine encephalitis virus …)

Measured: IC50 of neutralization (FRNT)

B1: VEE-63 (antibody, V domains shown)
VH: QVQLVQSGAEVKKPGASVKVSCKSSGYTFTNYIIHWVRQAPGQRLEWMGWINAGNGNTKYSQKFQGRISVTRDTSASAAYMELSSLKSEDTALYYCATLQMDYGGNGDLDYWGQGTLVTVSS
VL: SYELTQPPSVSVSPGQTARITCSGDALPKQYVYWYQQKPGQAPVLVIYKDSERPSGIPERFSGSSSGTTVTLTISGVQAEDDADYYCQAADSSNTEYVFGTGTKVTVL
< 2 ng/mL: all assays above
